Results of unrelated studies side by side (data: NIAID ChemDB).

All rows: whole-cell or culture tests; species: Hepatitis C virus; measure: inhibition

Lines come from different laboratories, so protocols vary. a–b is a range or a potency band. Percent inhibition refers to the dose given; in toxicity tests it is the harm to the cells. Blank or dashed fields: not listed here.

{"structure": "COc1cc(Cc2cnc(/N=C3\\C(=O)N(CN4CCN(c5cccc(Cl)c5)CC4)c4ccc(Br)cc43)nc2N)cc(OC)c1OC", "read by": "replicon", "dose": "50 µg/mL", "cell line": "Huh7", "result": "20%"}
{"structure": "O=C(CCc1c[nH]c2ccccc12)OCC(=O)c1ccc2ccccc2c1", "read by": "luciferase / replicon", "dose": "50 µM", "strain": "1b", "cell line": "Huh7/Rep-Feo1b", "result": "51.1%"}
{"structure": "O=C1NC(=Nc2nnc(-c3ccc(Cl)cc3Cl)s2)SC1=Cc1c(Cl)cccc1Cl", "read by": "luciferase", "dose": "50 µM", "strain": "GT1b", "cell line": "Huh7", "result": "58%"}
{"structure": "CNc1ncnc2c1ncn2[C@@H]1C2C[C@@]2(CO)C(O)C1(O)CO", "read by": "replicon", "dose": "100 µM", "cell line": "Huh7", "result": "0%"}
{"structure": "O=C1CSC(=Nc2nnc(-c3ccccc3F)s2)N1", "read by": "luciferase", "dose": "50 µM", "strain": "GT1b", "cell line": "Huh7", "result": "0%"}
{"structure": "COc1cc(Cc2cnc(/N=C3\\C(=O)N(CN4CCN(c5ccccc5)CC4)c4ccc(Br)cc43)nc2N)cc(OC)c1OC", "read by": "replicon", "dose": "50 µg/mL", "cell line": "Huh7", "result": "4%"}
{"structure": "CN(C(=O)c1ccncc1)c1cc(C(F)(F)F)ccc1N1CCCCC1", "read by": "luciferase / replicon", "dose": "30 µM", "strain": "2a", "cell line": "Huh7/Rep-Feo-2a", "result": "20–50%"}
{"structure": "COc1cc([C@H]2O[C@@H](c3cc(OC)c4c(c3)OCO4)[C@@H](C)[C@@H]2C)cc2c1OCO2", "dose": "25 µM", "strain": "Cell culture J6/JFH-1", "cell line": "Huh7.5", "result": "100%"}
{"structure": "CC1(C)CC[C@@]2(C(=O)NCc3cn(CCn4cc(CNC(=O)[C@]56CCC(C)(C)CC5C5=CCC7[C@@]8(C)CC[C@H](O)C(C)(C)C8CC[C@@]7(C)[C@]5(C)C[C@H]6O)nn4)nn3)C(C1)C1=CCC3[C@@]4(C)CC[C@H](O)C(C)(C)C4CC[C@@]3(C)[C@]1(C)C[C@H]2O", "read by": "luciferase / entry", "dose": "5 µM", "cell line": "Huh7", "result": "68.2%"}
{"structure": "COc1cc(Cc2cnc(/N=C3\\C(=O)N(CN4CCN(c5cc6c(cc5F)c(=O)c(C(=O)O)cn6C5CC5)CC4)c4ccc(Br)cc43)nc2N)cc(OC)c1OC", "read by": "replicon", "dose": "50 µg/mL", "cell line": "Huh7", "result": "19%"}
{"structure": "N#C/C(=C\\c1ccc(-c2ccc(F)cc2F)o1)c1nn(CCO)c(N)c1C#N", "read by": "luciferase / replicon", "dose": "50 µM", "strain": "1b", "cell line": "Huh7/Rep-Feo1b", "result": "79.7%"}
{"structure": "COc1cccc(N2CCN(CN3C(=O)/C(=N\\c4ncc(Cc5cc(OC)c(OC)c(OC)c5)c(N)n4)c4cc(Br)ccc43)CC2)c1", "read by": "replicon", "dose": "50 µg/mL", "cell line": "Huh7", "result": "6%"}
{"structure": "COC(=O)C1=CO[C@@H](O)[C@H]2[C@@H]1C=C[C@@]2(O)CO", "read by": "entry", "dose": "20 µg/mL", "result": "21.1%"}
{"structure": "CC1(C)CC[C@]2(C(=O)O)[C@H](O)C[C@]3(C)C(=CC[C@@H]4[C@@]5(C)CC[C@H](O)C(C)(C)[C@@H]5CC[C@]43C)[C@@H]2C1", "read by": "luciferase / entry", "dose": "1 µM", "cell line": "Huh7", "result": "27.5%"}
{"structure": "CC1(C)CC[C@@]2(C(=O)NCCCNC(=O)[C@]34CCC(C)(C)CC3C3=CCC5[C@@]6(C)CC[C@H](O)C(C)(C)C6CC[C@@]5(C)[C@]3(C)C[C@H]4O)C(C1)C1=CCC3[C@@]4(C)CC[C@H](O)C(C)(C)C4CC[C@@]3(C)[C@]1(C)C[C@H]2O", "read by": "luciferase / entry", "dose": "1 µM", "cell line": "Huh7", "result": "44.6%"}
{"structure": "O=C(N[C@@H](C(=O)N1CCC[C@H]1C(=O)Nc1nc(-c2ccccc2)cs1)c1ccccc1)C1CC1", "read by": "luciferase", "dose": "0.5738 µM", "strain": "genotype 2a infectious HCV", "cell line": "JFH1", "result": "90%"}
{"structure": "O=C(/C=C/c1ccc(O)cc1)OCC1=C[C@@H](O)[C@@H]2C=CO[C@@H](O)[C@H]12", "read by": "entry", "dose": "20 µg/mL", "result": "56.6%"}
{"structure": "CCN(CC)Cc1ccc(C(=O)N(CCc2ccccc2OC)C2CCNC2)cc1", "dose": "9.5 µM", "strain": "JFH-1", "cell line": "Huh7.5", "result": "90%"}
{"structure": "CC1(C)CC[C@@]2(C(=O)NCCCCNC(=O)[C@]34CCC(C)(C)CC3C3=CCC5[C@@]6(C)CC[C@H](O)C(C)(C)C6CC[C@@]5(C)[C@]3(C)C[C@H]4O)C(C1)C1=CCC3[C@@]4(C)CC[C@H](O)C(C)(C)C4CC[C@@]3(C)[C@]1(C)C[C@H]2O", "read by": "luciferase / entry", "dose": "5 µM", "cell line": "Huh7", "result": "59.6%"}
{"structure": "O=C(N[C@@H](C(=O)N1CCC[C@H]1c1ncc(-c2ccc(-c3ccc(-c4cnc([C@@H]5CCCN5C(=O)[C@H](NC(=O)C5CC5)c5ccccc5)s4)cc3)cc2)s1)c1ccccc1)C1CC1", "read by": "luciferase", "dose": "0.0000082 µM", "strain": "genotype 1b Con1", "cell line": "Huh7.5", "result": "90%"}
{"structure": "CC1(C)CC[C@@]2(C(=O)NCc3cn(Cc4cccc(Cn5cc(CNC(=O)[C@]67CCC(C)(C)CC6C6=CCC8[C@@]9(C)CC[C@H](O)C(C)(C)C9CC[C@@]8(C)[C@]6(C)C[C@H]7O)nn5)c4)nn3)C(C1)C1=CCC3[C@@]4(C)CC[C@H](O)C(C)(C)C4CC[C@@]3(C)[C@]1(C)C[C@H]2O", "read by": "luciferase / entry", "dose": "5 µM", "cell line": "Huh7", "result": "74.6%"}
{"structure": "C[C@@H]1[C@H]2[C@H](O[C@@H]3O[C@H](CO)[C@@H](O)[C@H](O)[C@H]3O)OC=C(C(=O)O)[C@H]2C[C@@H]1O", "read by": "entry", "dose": "20 µg/mL", "result": "0%"}
{"structure": "COc1cc(Cc2cnc(/N=C3\\C(=O)N(CN4CCCC4)c4ccc(Br)cc43)nc2N)cc(OC)c1OC", "read by": "replicon", "dose": "50 µg/mL", "cell line": "Huh7", "result": "0%"}
{"structure": "COc1cc(C2OCC3C(=O)OCC32)cc(O)c1OC", "read by": "PCR", "dose": "15 µM", "cell line": "Ava5", "result": "80%"}
{"structure": "Nc1ncnc2c1ncn2[C@@H]1C2C[C@@]2(CO)C(O)C1(O)CO", "read by": "replicon", "dose": "100 µM", "cell line": "Huh7", "result": "0%"}
{"structure": "O=C1NC(=Nc2nnc(-c3c(F)cccc3Cl)s2)SC1=Cc1c(Cl)cccc1Cl", "read by": "luciferase", "dose": "50 µM", "strain": "GT1b", "cell line": "Huh7", "result": "84%"}
{"structure": "COc1cc([C@@H]2O[C@H](c3cc(OC)c4c(c3)OCO4)[C@@H](C)[C@@H]2C)cc(OC)c1OC", "read by": "luciferase", "changes": "P1220S D1430H S2204I", "dose": "12.5 µM", "strain": "Subgenomic replicon S52", "cell line": "Huh7.5", "result": "98%"}
{"structure": "[N-]=[N+]=NCC1(O)C(O)[C@]2(CO)CC2[C@H]1n1cnc2c(N)ncnc21", "read by": "replicon", "dose": "100 µM", "cell line": "Huh7", "result": "0%"}
{"structure": "COC(=O)C1=CO[C@@H](O)[C@H]2[C@@H]1[C@H](O)C[C@]2(C)O", "read by": "entry", "dose": "20 µg/mL", "result": "61.2%"}
{"structure": "O=C1NC(=Nc2nnc(-c3ccccc3F)s2)SC1=Cc1cccc(F)c1", "read by": "luciferase", "dose": "50 µM", "strain": "GT1b", "cell line": "Huh7", "result": "74%"}
{"structure": "CC1=CC2NC(/C(C#N)=C/c3ccc(O)c(O)c3)=NC2C=C1", "read by": "luciferase / replicon", "dose": "50 µM", "strain": "1b", "cell line": "Huh7/Rep-Feo1b", "result": "97%"}
{"structure": "COc1ccccc1N1CCN(CN2C(=O)/C(=N\\c3ncc(Cc4cc(OC)c(OC)c(OC)c4)c(N)n3)c3cc(Br)ccc32)CC1", "read by": "replicon", "dose": "50 µg/mL", "cell line": "Huh7", "result": "55%"}
{"structure": "O=C1NC(=Nc2nnc(-c3c(Cl)cccc3Cl)s2)SC1=Cc1c(Cl)cccc1Cl", "read by": "luciferase", "dose": "50 µM", "strain": "GT1b", "cell line": "Huh7", "result": "88%"}
{"structure": "COc1nc(N)nc2c1ncn2[C@@H]1O[C@H](COP(=O)(N[C@@H](C)C(=O)OC(C)C)Oc2ccccc2)[C@@H](O)[C@@]1(C)F", "read by": "luciferase", "dose": "0.0085 µM", "strain": "Con1", "cell line": "HepG2", "result": "90%"}
{"structure": "COc1ccc(CC2C(=O)NC(=O)N(c3ccc4c(c3)OCO4)C2=O)cc1O", "read by": "luciferase / replicon", "dose": "50 µM", "strain": "1b", "cell line": "Huh7/Rep-Feo1b", "result": "25.3%"}
{"structure": "O=C1NC(=Nc2nnc(-c3cccnc3)s2)SC1=Cc1c(Cl)cccc1Cl", "read by": "luciferase", "dose": "50 µM", "strain": "GT1b", "cell line": "Huh7", "result": "92%"}
{"structure": "COC(=O)C1=CO[C@@H](OC2O[C@H](CO)[C@@H](O)[C@H](O)[C@H]2O)[C@@H]2[C@H](C)[C@@H](O)C[C@H]12", "read by": "entry", "dose": "20 µg/mL", "result": "0%"}
{"structure": "COc1cc(Cc2cnc(/N=C3\\C(=O)N(CN4CCN(C)CC4)c4ccc(Br)cc43)nc2N)cc(OC)c1OC", "read by": "replicon", "dose": "50 µg/mL", "cell line": "Huh7", "result": "24%"}
{"structure": "COC(=O)C1=CO[C@@H](O)[C@@H]2[C@H](C)[C@@H](O)C[C@H]12", "read by": "entry", "dose": "20 µg/mL", "result": "0.4%"}
{"structure": "O=C1CSC(=Nc2nnc(-c3c(F)cccc3Cl)s2)N1", "read by": "luciferase", "dose": "50 µM", "strain": "GT1b", "cell line": "Huh7", "result": "34%"}
{"structure": "CC1(C)CC[C@@]2(C(=O)NCCn3cc(CN(Cc4cn(C(C)(C)C)nn4)Cc4cn(C(C)(C)C)nn4)nn3)C(C1)C1=CCC3[C@@]4(C)CC[C@H](O)C(C)(C)C4CC[C@@]3(C)[C@]1(C)C[C@H]2O", "read by": "luciferase / entry", "dose": "1 µM", "cell line": "Huh7", "result": "1.2%"}
{"structure": "COc1ccc(N2CCN(CN3C(=O)/C(=N\\c4ncc(Cc5cc(OC)c(OC)c(OC)c5)c(N)n4)c4cc(Br)ccc43)CC2)cc1", "read by": "replicon", "dose": "50 µg/mL", "cell line": "Huh7", "result": "17%"}
{"structure": "COc1cccc([C@H]2C(C(=O)/C=C/c3ccccc3)=C(O)C(=O)N2CCCC(=O)O)c1", "read by": "luciferase / replicon", "dose": "50 µM", "strain": "1b", "cell line": "Huh7/Rep-Feo1b", "result": "0%"}
{"structure": "CC1(C)CC[C@@]2(C(=O)NCc3cn(CCc4ccc(CCn5cc(CNC(=O)[C@]67CCC(C)(C)CC6C6=CCC8[C@@]9(C)CC[C@H](O)C(C)(C)C9CC[C@@]8(C)[C@]6(C)C[C@H]7O)nn5)cc4)nn3)C(C1)C1=CCC3[C@@]4(C)CC[C@H](O)C(C)(C)C4CC[C@@]3(C)[C@]1(C)C[C@H]2O", "read by": "luciferase / entry", "dose": "5 µM", "cell line": "Huh7", "result": "81.1%"}

Repeating the final 7 entries:

structure	read by	changes	dose	strain	cell line	result
COc1cc(Cc2cnc(/N=C3\C(=O)N(CN4CCN(C)CC4)c4ccc(Br)cc43)nc2N)cc(OC)c1OC	replicon		50 µg/mL		Huh7	24%
COC(=O)C1=CO[C@@H](O)[C@@H]2[C@H](C)[C@@H](O)C[C@H]12	entry		20 µg/mL			0.4%
O=C1CSC(=Nc2nnc(-c3c(F)cccc3Cl)s2)N1	luciferase		50 µM	GT1b	Huh7	34%
CC1(C)CC[C@@]2(C(=O)NCCn3cc(CN(Cc4cn(C(C)(C)C)nn4)Cc4cn(C(C)(C)C)nn4)nn3)C(C1)C1=CCC3[C@@]4(C)CC[C@H](O)C(C)(C)C4CC[C@@]3(C)[C@]1(C)C[C@H]2O	luciferase / entry		1 µM		Huh7	1.2%
COc1ccc(N2CCN(CN3C(=O)/C(=N\c4ncc(Cc5cc(OC)c(OC)c(OC)c5)c(N)n4)c4cc(Br)ccc43)CC2)cc1	replicon		50 µg/mL		Huh7	17%
COc1cccc([C@H]2C(C(=O)/C=C/c3ccccc3)=C(O)C(=O)N2CCCC(=O)O)c1	luciferase / replicon		50 µM	1b	Huh7/Rep-Feo1b	0%
CC1(C)CC[C@@]2(C(=O)NCc3cn(CCc4ccc(CCn5cc(CNC(=O)[C@]67CCC(C)(C)CC6C6=CCC8[C@@]9(C)CC[C@H](O)C(C)(C)C9CC[C@@]8(C)[C@]6(C)C[C@H]7O)nn5)cc4)nn3)C(C1)C1=CCC3[C@@]4(C)CC[C@H](O)C(C)(C)C4CC[C@@]3(C)[C@]1(C)C[C@H]2O	luciferase / entry		5 µM		Huh7	81.1%